Results published in patent US20200283532A1, “TUMOUR-TARGETING PEPTIDE VARIANTS” (Cancer Research Technology Limited, priority 2017, published 2020).

Chains of the proteins cited; added tags and fusions are not shown. Residues count along the entry.
UniProt P06756, 891-1048 limits assumed, stated change not applied: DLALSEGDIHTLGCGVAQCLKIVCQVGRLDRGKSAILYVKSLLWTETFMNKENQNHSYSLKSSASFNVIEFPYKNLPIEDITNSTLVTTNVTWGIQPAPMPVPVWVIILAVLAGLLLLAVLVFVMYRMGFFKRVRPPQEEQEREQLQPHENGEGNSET
UniProt P06756, 31-889 limits assumed, stated change not applied: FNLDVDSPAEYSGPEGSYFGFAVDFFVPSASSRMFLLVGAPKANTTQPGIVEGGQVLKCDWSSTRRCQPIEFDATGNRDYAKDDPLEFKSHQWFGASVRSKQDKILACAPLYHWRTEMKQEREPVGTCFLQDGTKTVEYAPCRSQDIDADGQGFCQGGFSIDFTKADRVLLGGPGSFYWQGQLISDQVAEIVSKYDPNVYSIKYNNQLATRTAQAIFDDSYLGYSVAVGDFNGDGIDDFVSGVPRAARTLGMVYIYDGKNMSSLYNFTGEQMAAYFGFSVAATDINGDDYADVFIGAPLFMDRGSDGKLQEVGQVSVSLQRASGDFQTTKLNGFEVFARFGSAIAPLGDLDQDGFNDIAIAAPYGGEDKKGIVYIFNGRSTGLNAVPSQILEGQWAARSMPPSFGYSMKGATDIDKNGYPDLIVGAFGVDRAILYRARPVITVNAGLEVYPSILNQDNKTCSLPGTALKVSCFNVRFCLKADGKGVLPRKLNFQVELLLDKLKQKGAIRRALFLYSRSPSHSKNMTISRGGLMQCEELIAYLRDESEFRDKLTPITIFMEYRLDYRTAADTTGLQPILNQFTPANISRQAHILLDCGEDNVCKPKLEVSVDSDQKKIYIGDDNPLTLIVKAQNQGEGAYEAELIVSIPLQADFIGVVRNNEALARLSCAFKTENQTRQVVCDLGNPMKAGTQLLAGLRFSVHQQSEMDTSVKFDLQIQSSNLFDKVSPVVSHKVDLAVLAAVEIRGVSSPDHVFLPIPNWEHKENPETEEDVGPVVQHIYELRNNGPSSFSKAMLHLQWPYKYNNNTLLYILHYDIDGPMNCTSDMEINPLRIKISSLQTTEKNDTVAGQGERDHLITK
UniProt P18564, 22-788, stated change not applied: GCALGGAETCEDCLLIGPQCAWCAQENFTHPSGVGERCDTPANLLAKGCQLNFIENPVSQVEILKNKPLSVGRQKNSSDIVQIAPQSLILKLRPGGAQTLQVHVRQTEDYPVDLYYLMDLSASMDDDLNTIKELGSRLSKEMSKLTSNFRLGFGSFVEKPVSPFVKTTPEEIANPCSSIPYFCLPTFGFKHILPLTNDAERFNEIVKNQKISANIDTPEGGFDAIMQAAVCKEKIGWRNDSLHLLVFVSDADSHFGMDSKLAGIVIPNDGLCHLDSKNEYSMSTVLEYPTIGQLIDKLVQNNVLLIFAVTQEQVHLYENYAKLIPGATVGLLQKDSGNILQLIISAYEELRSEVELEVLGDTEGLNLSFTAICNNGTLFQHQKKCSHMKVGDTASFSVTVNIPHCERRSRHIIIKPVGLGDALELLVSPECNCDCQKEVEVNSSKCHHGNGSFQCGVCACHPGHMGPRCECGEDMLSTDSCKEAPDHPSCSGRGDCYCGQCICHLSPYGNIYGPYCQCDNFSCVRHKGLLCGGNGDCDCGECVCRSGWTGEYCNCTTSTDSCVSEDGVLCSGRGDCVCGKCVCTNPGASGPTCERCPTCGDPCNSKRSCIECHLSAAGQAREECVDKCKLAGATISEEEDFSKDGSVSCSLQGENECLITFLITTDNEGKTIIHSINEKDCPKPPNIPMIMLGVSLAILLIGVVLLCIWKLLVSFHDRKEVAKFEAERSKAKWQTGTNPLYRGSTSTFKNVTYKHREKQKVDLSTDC

Tests used:
A375Pβ6 cells = assay type: cell-based
Experimental: Cells were trypsinised and resuspended into DMEM (serum-free media) to prepare a cell suspension of 4×10^6 cells/ml. From this point on everything was kept on ice. 50 μl of cell suspension were aliquoted into each flow tube. Peptides were diluted in ice-cold serum-free media to 200 nM giving the final concentration of 100 nM when 50 μl was added to the cell samples. The peptides were left on ice for 15 minutes then washed twice with flow media and centrifuged for 3 minutes at 1200 rpm in between each wash step. Mouse anti-biotin (50 μl at 1:200) was added to each sample for 15 minutes, then wash steps were repeated. […] Samples were examined on an Imagestream X Mark II (Amnis, Merck) Imagestream images were assessed for internalisation compared with the 0 minute samples using on board software. […]
Cells were prepared as above except that no detergent was added prior to detecting the biotin with antibodies. Samples were analysed on a FACScalibur (Bekton-Dickinson) cytometer.
To assess ability to be internalized by cells at 37° C. […] Imagestream® takes a fluorescence image of each cell (FIG. 2C) enabling image analysis of the fluorescence on the surface versus the intracellular compartment. […] For flow cytometry we monitored the loss of surface expression as the peptides were internalized.

[1] = biological target: T1, αvβ6 integrin (A375Pβ6 cells) (Homo sapiens, UniProt P06756+P18564); assay: Level of binding of biotinylated peptides to A375Pβ6 cells by flow cytometry
T1 construct: expressed in transfected cells; host or cells: A375Pβ6 (transduced A375P melanoma cells; control line A375Ppuro)

## CC(C)C[C@H](NC(=O)[C@H](CC(=O)O)NC(=O)CNC(=O)[C@H](CCCNC(=N)N)NC(=O)[C@H](CC(C)C)NC(=O)[C@H](CC(N)=O)NC(=O)[C@@H]1CCCN1C(=O)[C@@H](NC(=O)[C@H](CCCCNC(=O)CCCC[C@@H]1SC[C@@H]2NC(=O)N[C@@H]21)NC(=O)[C@H](CC(N)=O)NC(=O)CN(CCN(CCN(CC(=O)O)CC(=O)O)CC(=O)O)CC(=O)O)C(C)C)C(=O)N[C@@H](CCC(N)=O)C(=O)N[C@H](C(=O)N[C@@H](CC(C)C)C(=O)N[C@@H](C)C(=O)N[C@@H](CCC(N)=O)C(=O)N[C@@H](CCCCN)C(=O)N[C@H](C(=O)N[C@@H](C)C(=O)N[C@@H](CCCNC(=N)N)C(=O)N[C@H](C(N)=O)[C@@H](C)O)C(C)C)C(C)C [Peptide 24]
A375Pβ6 cells
  B) Internalisation: mean % internalisation at 45 min relative to biotinylated A20FMDV2 (100 nM): 0.98 ± 0.12
[1]
  A) Affinity: mean activity relative to biotinylated A20FMDV2 (100 nM): 1.19 ± 0.30
